Measured values as given in the supplement of paper PMC9931576.
Human monoclonal antibodies against the spike receptor-binding domain (heavy:light variable regions). IC50 against pseudoviruses bearing the spike of naturally observed variants; lower = stronger; >10 µg/ml means not reached at the top dose. No active / inactive call. The stated detection limit is 0.0005 µg/ml; values near or below 0.001 µg/ml lie at the floor of the assay.

Experiments:
Experiment in all cases: pseudovirus neutralization IC50; higher = weaker neutralization
[1] = molecular target: SARS-CoV-2 Omicron BA.1 spike pseudovirus
Description: (§1)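 Single-round VSV luciferase pseudovirus mixed with antibody dilutions for 1 h and put on Huh-7 cells for about a day; IC50 from the dose curve.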

[2] = molecular target: SARS-CoV-2 Omicron BA.2 spike pseudovirus
Description: as §1

[3] = molecular target: SARS-CoV-2 Omicron BA.2.75 spike pseudovirus
Description: as §1

[4] = molecular target: SARS-CoV-2 Omicron BA.5 spike pseudovirus
Description: as §1

[5] = molecular target: SARS-CoV-2 Omicron BQ.1.1 spike pseudovirus
Description: as §1

[6] = molecular target: SARS-CoV-2 Omicron XBB spike pseudovirus
Description: as §1

[7] = molecular target: SARS-CoV-2 early D614G spike pseudovirus
Description: as §1

Measured: pseudovirus neutralization IC50

B1: BD55-6034 (protein)
chain 1: EVQLLESGGGLVRPGGSLRLSCAASGFTFNNYAMHWVRQAPGKGLEWVSGISSRGDLKFYADYARGRFTISRDNSKNTLFLQMSSLSAEDTAVYYCAKEDNYYDSTGYYYVSWGQGVLVTVSS
chain 2: DIQMTQSPSSLSASVGDRVTITCRASQTIGTYLNWYQQKPGKAPKLLIYKASSLQSGVPSRFSGSGSGTDFTLTISSLQPEDSATYYCQQSYSTPPYTFAQGTKLEIK
> 10 µg/mL: all assays above

B2: BD55-6041 (protein)
chain 1: QITLKESGPTLVKPTQTLTLTCSFSGFSLTTSGVGVGWFRQPPGKALEWLALIYWDDDKRYSPSLKSRLTVTKDTSKNLVVLSMTNMDPVDTATYYCAHNRPQPGIPALGTWFDPWGQGTLVTVSS
chain 2: QSVLTQPPSVSEAPRQRVTISCSGSSSNIGNNAVNWYQQLPGKAPKLLIYYDDLLPSGVSDRFSGSRSGTSASLAISGLQSQDEADYYCASWDDSLNGPVFGGGTKLTVL
1.37 µg/mL: [7]
> 10 µg/mL: all other assays above

B3: BD55-6043 (protein)
chain 1: EVQLVESGGGLVQPGGSLRLSCAASGFTVSNNYMSWVRQAPGKGLEWVSVIYSADSTHYADSVRGRFTISRDNSKNTVDFQMNSLRAEDTAVYYCARGIVAANGDYFDCWGQGTLVTVSS
chain 2: SYVLTQPPSVSVAPGKTARITCGGNNIGSKSVHWYQQRPGQAPVLVIYYDSDRPSGIPERFSGSNSGNTATLTITRVEAGDEADYFCQVWDGSSHHHWVFGGGTKLTVL
> 10 µg/mL: all assays above

B4: BD55-1145 (protein)
chain 1: QVQLVQSGAEVKKPGSSVKVSCKASGGTFSHYGISWVRQAPGQGPEWMGGIIPLFGAPNYAQKFQGRVTITADESTRTAYMELSSLRSEDTAVYYCARDRDIVLVTMGVPRRNAFDVWGQGTMVTVSS
chain 2: ETVMTQSPATLSLSPGERATLSCRASHNVNTNLAWYQQKPGQAPRLLIYGASTRATGIPARFSGSGSGTDFTLTISSLQSEDFAVYYCQEYNKWPLTFGGGTKVEIK
> 10 µg/mL: all assays above

B5: BD55-6049 (protein)
chain 1: QLQLQESGPGLVKPSETLSLTCTVSGGSISSSGYYWGWIRQSPGKGLESIGIIYYTVTTFYNPSLESRVTISADTSKNQLSLKLTSATAADTAVYYCARLTGVDNGDSRHNWFDPWGQGTLVTVSS
chain 2: QSVLTQPPSVSGAPGQRVTISCTGSSSNIGAGYDVHWYQQLPGAAPKLLIYSNTNRPSGVPDRFSGSRSATSASLVITGLQAEDEADFYCQSYDFSLRSRVFGGGTKLTVL
> 10 µg/mL: all assays above

B6: BD55-6054 (protein)
chain 1: QVQLQESGPGLVKPSQTLSLTCTVSGGSISSGDYYWSWIRQPPGKGLEWIGYIYYSVRTDYNPSLKSRVTISVDTSKNQFSLKLSSVTAADTAVYYCASRFTFTGYDILTGIRLATGAFDIWGQGTMVTVSP
chain 2: EIVLTQSPGTLSLSPGERASLSCRASQGISSSSLAWYQQKPGQAPRLVIYDASSRAPGIPDRFSGTGSGTDFTLTISRLEPEDFVLYYCQQYGSSPLTFGGGTKVEIK
> 10 µg/mL: all assays above

B7: BD55-6059 (protein)
chain 1: QVQLVQSGSELKKPGASVKVSCKASGYTFFSYGLNWVRQAPGQGLEWMGWIDTSTGNPTYARGSTGRFVFSLDTSVSTAYLEISSLKTEDTAMYYCARMYPPVCYDVLTGDYCHDYYYYMDVWGKGTTVTVSS
chain 2: SSELTQPPSVSVSPGQTARITCSGDALPKKYAYWYQQKSGQAPVLVIYEDDKRPSGIPERFSGSNSGTMATLTISGAQVDDEADFYCSSVDSSGNRGVIFGGGTKLSVL
> 10 µg/mL: all assays above

B8: BD55-1146 (protein)
chain 1: EVQLVEAGGGLAQPGRSLRLSCAASGFAFDDYAMHWVRQAPGKGLEWVSSISWNSGTIDYADFVQGRFTISRDSAKSTLYLQMNSLRAEDTAFYYCAKGRDITRFLFDAFDIWGRGTKVIVSS
chain 2: DIQMTQSPSTLSASVGDRVTITCRASQGISTWLAWYQQKPGKAPKLLIYKASALQTGVPSRFSGGGSGTDFTLTISSLQPDDSATYYCQQYNSYSGYTFGQGTKLEIK
5.52 µg/mL: [7]
> 10 µg/mL: all other assays above

B9: BD55-6062 (protein)
chain 1: EVQLVESGGGLVQPGGSLRLSCAASGFTFSNHAMHWVRQAPGKGLEYVSSITSDGSGTFYANSVGGRFTISRDNSKKTLYLQMGSLRSEDMAVYYCAREGPEIDVTLDYWGQGTLVTVSS
chain 2: DIQMTQSPSSLSASVGDRVTITCRASQTIGKYLNWYQQKPGKPPKLLISGASNLQSGVPSRFSGGGSGADFTLTISSLQPEDFATYFCQQSYTGPQYTFGQGTKLDIK
> 10 µg/mL: all assays above

B10: BD55-6069 (protein)
chain 1: QVQLVQSGAEVKKPGSSVKVSCKASGGTFTNYVINWVRQAPGQGLEWMGRIIPIFGRANSAQKFQGRVNITADKSTSTAYMELSSLRSEDTAVYFCARVRRTGEYSGYDLTYFALDVWGQGTRVTVSS
chain 2: DIQMTQSPSTLSASVGDRVTITCRASQTISSWLAWYQQKPGKAPKLLIYDASSLESGVPSRFSGSGSGTEFTLTISSLQPDDFATYYCQQYDYFGQGTKLEIK
0.0506 µg/mL: [7]
> 10 µg/mL: all other assays above

B11: BD55-6074 (protein)
chain 1: QLQLQESGPGLVKPSETLSLTCTVSGGSISSSSYCWAWIRQPPGKGLEWIGSICYSVSTNYNPSLKSRVTISVDTSKNQFSLKLSSVTAADTAVYYCARHSGYDPEFDYWGQGTLVTVSS
chain 2: DIQMTQSPSTLSASVGDRVTITCRASQSISRWLAWYQQKPGKAPKLLIYKASILESGVPSRFSGSGSGTEFTLTISSLQPDDFATYYCQHYNSYPYTFGQGTKLEIK
> 10 µg/mL: all assays above

B12: BD55-1162 (protein)
chain 1: QLQLQESGPGLLKPSETLSLNCSVSGGSISSSSYYWGWIRQPPGKGLQWIGHVYYTGITYSNPSLESRLTISVDTSKNQFSLALSSVTAADTAVYYCARRVRYFDYSNSFDVWGHGTTVTVSS
chain 2: QSALTQPASVSGSPGQSVTISCTGTSSDVGTYDLVSWYQHHPGKAPKLVIYEVTKRPSGVSNRFSASKSGNTASLTISGLRAEDEADYYCCANAGSNIMFGGGTKLTVL
> 10 µg/mL: all assays above
